A mixed list of measured activities; the numbers were collected in NIAID ChemDB.

Shared fields: host cell toxicity; cell line: HepG2 2.2.15; read-out: CC50

Conditions beyond the fields shown may differ between rows. CCn: concentration that lowers growth or viability of the cells by n%.

smiles | value
CCOC(=O)CSc1nnc(CNc2ccccc2)n1-c1ccccc1 | >100 µM
CCc1c(Sc2ccc(C)cc2)[nH]c(=O)[nH]c1=O | 92 µM
Nc1ncnc2c1ccn2[C@@H]1C=C[C@H](CO)C1 | 50 µM
Cc1ccc(NCC(=O)NNC(=S)Nc2ccccc2)cc1 | >100 µM
Nc1ncnc2c1ccn2[C@H]1CC(F)[C@@H](CO)O1 | >200 µM
COC1OC(CSc2nccc(=O)[nH]2)C(O)C1O | >100 µM
c1ccc(NCc2nnc(Sc3ccccc3)o2)cc1 | >100 µM
COC(=O)[C@H](Cc1ccccc1)NP(=O)(OC[C@H]1C=C[C@@H](n2ccc3c(N)ncnc32)C1)Oc1ccccc1 | >36 µM
CCOC(=O)c1c(-c2ccccc2)c(-c2ccccc2)nn(CC(O)CO)c1=O | >10 µM
O=C(CSc1nnc(CNc2ccccc2)n1-c1ccccc1)NN=CC(O)C(O)C(O)CO | >100 µM
Cc1cc(C)cc(Sc2cc(=O)[nH]c(=O)[nH]2)c1 | >100 µM
O=C(CSc1nnc(CNc2ccc(F)cc2)n1-c1ccccc1)NN=CC(O)C(O)C(O)CO | >100 µM
Nc1ncnc2c1ncn2[C@@H]1C[C@@H](F)[C@H](CO)O1 | 187 µM
C/C(=N\N=C(N)N)c1ccc(NC(=O)Nc2cc(/C(C)=N/N=C(N)N)cc(/C(C)=N/N=C(N)N)c2)cc1 | 63 µM
Nc1ncnc2c1ncn2[C@H]1CC(F)[C@@H](CO)O1 | >200 µM
Cc1nc2ccccc2n(CC(O)CO)c1=O | >10 µM
C[C@H](NP(=O)(OC[C@H]1C=C[C@@H](n2ccc3c(N)ncnc32)C1)Oc1ccccc1)C(=O)OCc1ccccc1 | >11 µM
CCCc1cc(=O)[nH]c(SCC2OC(OC)C(O)C2O)n1 | >100 µM
O=C1NC(=O)/C(=C/N2CCN(C(c3ccccc3)c3ccc(Cl)cc3)CC2)S1 | 54.02 µM
COC1OC(Cn2c(C)cc(=O)nc2SC)C(O)C1O | >100 µM
COC(=O)[C@H](C)NP(=O)(OC[C@H]1O[C@@H](n2ccc3c(N)ncnc32)CC1F)Oc1ccccc1 | 149 µM
Fc1ccc(NCc2nc(=S)[nH][nH]2)cc1 | >100 µM
COC(=O)[C@H](Cc1ccccc1)NP(=O)(OC[C@@H]1C=C[C@H](n2ccc3c(N)ncnc32)C1)Oc1ccccc1 | 51 µM
COC1OC(CSc2ncc(C)c(=O)[nH]2)C(O)C1O | >100 µM
Cc1ccc(NCc2nnc(SCC(=O)NN)n2-c2ccccc2)cc1 | >100 µM
CCc1c(Sc2cc(C)cc(C)c2)[nH]c(=O)[nH]c1=O | >100 µM
COC(=O)[C@H](C)NP(=O)(OC[C@@H]1O[C@H](n2cnc3c(N)ncnc32)CC1F)Oc1ccccc1 | >200 µM
O=C(CNc1ccccc1)NNC(=S)Nc1ccccc1 | >100 µM
COC(=O)C(C)(C)NP(=O)(OC[C@H]1C=C[C@@H](n2ccc3c(N)ncnc32)C1)Oc1ccccc1 | >2 µM

A second listing of 2 rows from above:

smiles,value
Cc1nc2ccccc2n(CC(O)CO)c1=O,>10 µM
Nc1ncnc2c1ccn2[C@H]1CC(F)[C@@H](CO)O1,>200 µM